Pooled drug test results. Numbers come from NIAID ChemDB, via PubChem.

Shared fields: tests in culture

An empty or dashed field is not shown.

SMILES | agent | cell line | method | endpoint | tested at | value
CSc1nsc(-c2ccccc2)c1C(N)=O | Encephalomyocarditis virus | L929 | plaque count | EC50 | - | >250 µg/mL
CO[C@@H]1[C@H](OC(=O)NC(=O)CCl)CC[C@]2(CO2)[C@H]1[C@@]1(C)O[C@@H]1CC=C(C)C | Encephalitozoon intestinalis | RK-13 | - | inhibition | 0.001 µg/mL | 83.6%
Cn1c([N+](=O)[O-])cnc1COC(N)=O | Encephalitozoon cuniculi | - | - | EC50 | - | >5 µg/mL
Nc1[nH]c(=O)ncc1F | Encephalitozoon cuniculi | MRC-5 fibroblasts | cytopathic effect | inhibition | 50 µg/mL | 0%
CC(C)C[C@H](NC(=O)[C@@H](O)[C@H](N)Cc1ccc([N+](=O)[O-])cc1)C(=O)O | Encephalitozoon cuniculi | - | - | EC50 | - | >20 µg/mL
CO[C@H]1/C=C/O[C@@]2(C)Oc3c(C)c(O)c4c(O)c(c5c(c4c3C2=O)NC2(CCN(CC(C)C)CC2)N=5)=NC(=O)/C(C)=C\C=C\[C@H](C)[C@H](O)[C@@H](C)[C@@H](O)[C@@H](C)[C@H](OC(C)=O)[C@@H]1C | Encephalitozoon cuniculi | MRC-5 fibroblasts | cytopathic effect | inhibition | 20 µg/mL | 22%
N#CCSc1nsc(-c2ccccc2)c1C#N | Encephalomyocarditis virus | L929 | plaque count | EC50 | - | >10 µg/mL
Cc1c(CSc2cccc3ccccc23)cnc2nc(N)nc(N)c12 | Encephalitozoon intestinalis | RK-13 | - | inhibition | 0.1 µg/mL | 4.1%
Cc1ncc([N+](=O)[O-])n1CCO | Encephalitozoon cuniculi | - | - | EC50 | - | >5 µg/mL
N#Cc1c(SCCO)nsc1-c1ccccc1 | Encephalomyocarditis virus | L929 | plaque count | EC50 | - | >5 µg/mL
CCOc1ccc(OCC)c(NCc2cnc3nc(N)nc(N)c3c2C)c1 | Encephalitozoon intestinalis | RK-13 | - | inhibition | 0.01 µg/mL | 0%
CC[C@H]1OC(=O)[C@H](C)[C@@H](O[C@H]2C[C@@](C)(OC)[C@@H](O)[C@H](C)O2)[C@H](C)[C@@H](O[C@@H]2O[C@H](C)C[C@H](N(C)C)[C@H]2O)[C@](C)(O)C[C@@H](C)CN(C)[C@H](C)[C@@H](O)[C@]1(C)O | Encephalitozoon cuniculi | MRC-5 fibroblasts | cytopathic effect | inhibition | 20 µg/mL | 0%
CC[C@]1(O)C[C@H]2CN(CCc3c([nH]c4ccccc34)[C@@](C(=O)OC)(c3cc4c(cc3OC)N(C)[C@H]3[C@@](O)(C(=O)OC)[C@H](OC(C)=O)[C@]5(CC)C=CCN6CC[C@]43[C@@H]65)C2)C1 | Encephalitozoon intestinalis | RK-13 | - | inhibition | 1 µg/mL | 71.5%
N#Cc1c(SCCCCBr)nsc1-c1ccccc1 | Encephalomyocarditis virus | L929 | plaque count | EC50 | - | 5 µg/mL
O=C1C(=O)c2ccccc2C(O)=C1C1CCC(c2ccc(Cl)cc2)CC1 | Encephalitozoon cuniculi | MRC-5 fibroblasts | cytopathic effect | inhibition | 0.2 µg/mL | 0%
N=C(N)c1ccc(OCCCOc2ccc(C(=N)N)cc2)cc1 | Encephalitozoon cuniculi | - | - | EC50 | - | 5 µg/mL
CCOC(=O)Nc1cc2[nH]c(=O)c(-c3ccccc3)nc2c(NC(c2ccccc2)c2ccccc2)n1 | Encephalitozoon intestinalis | RK-13 | - | inhibition | 0.01 µg/mL | 57.5%
CCCSc1nsc(-c2ccccc2)c1C(=O)O | Encephalomyocarditis virus | L929 | plaque count | EC50 | - | >500 µg/mL
CC(C)C[C@@H](N)[C@H](O)C(=O)N[C@H](C(=O)N[C@H](C(=O)N[C@@H](CC(=O)O)C(=O)O)C(C)C)C(C)C | Encephalitozoon cuniculi | - | - | EC50 | - | >20 µg/mL

For reference, 2 entries again:

| SMILES | agent | cell line | method | endpoint | tested at | value |
|---|---|---|---|---|---|---|
| CCCSc1nsc(-c2ccccc2)c1C(=O)O | Encephalomyocarditis virus | L929 | plaque count | EC50 | - | >500 µg/mL |
| CCOC(=O)Nc1cc2[nH]c(=O)c(-c3ccccc3)nc2c(NC(c2ccccc2)c2ccccc2)n1 | Encephalitozoon intestinalis | RK-13 | - | inhibition | 0.01 µg/mL | 57.5% |

Neighbouring rows are from separate reports. Inhibition is in % at the dose shown (toxicity tests: loss of growth or viability). ECn: concentration that inhibits the pathogen or its effect by n%.